# DMS reactivity of the HIV-1 5' RNA in monomer and dimer

RNA: 5' end of the HIV-1 NL4-3 genome, made in vitro. Positions 1-437 read:
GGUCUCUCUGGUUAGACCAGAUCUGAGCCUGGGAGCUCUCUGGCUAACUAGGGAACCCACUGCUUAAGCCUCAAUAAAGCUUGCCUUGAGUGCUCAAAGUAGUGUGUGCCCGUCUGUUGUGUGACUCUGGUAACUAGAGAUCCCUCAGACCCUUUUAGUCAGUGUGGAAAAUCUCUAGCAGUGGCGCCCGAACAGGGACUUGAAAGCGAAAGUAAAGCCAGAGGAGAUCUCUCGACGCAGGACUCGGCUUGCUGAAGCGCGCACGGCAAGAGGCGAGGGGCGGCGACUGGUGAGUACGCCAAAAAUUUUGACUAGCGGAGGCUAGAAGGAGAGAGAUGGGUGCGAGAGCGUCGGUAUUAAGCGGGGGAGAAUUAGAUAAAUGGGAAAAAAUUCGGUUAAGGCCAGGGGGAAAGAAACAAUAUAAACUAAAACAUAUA

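Mutant RNA libraries with 1G, 2G or 3G starts, with or without cap, were folded at 37 °C for 30 min. High salt was 300 mM KCl and 5 mM MgCl2, low salt 40 mM KCl and 0.1 mM MgCl2; monomer and dimer were parted on a native gel. Each band was probed in the gel with DMS (170 mM, 15 min, 37 °C), with ethanol as control, and sequenced.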

Values are winsor-normalised DMS reactivities of A and C; higher means more reactive, usually unpaired. One numbering serves 1G, 2G and 3G. A position is written with its base.

position | 2G capped low-salt dimer | 2G capped low-salt monomer | 2G uncapped high-salt dimer | 2G uncapped high-salt monomer
A303 | 0.07 | 0.07 | 0.08 | 0.09
A304 | 0.16 | 0.13 | 0.19 | 0.22
A305 | 0.68 | 0.74 | 0.65 | 0.71
A311 | 1.26 | 1.06 | 1.34 | 1.32
C312 | 0.07 | 0.12 | 0.08 | 0.10
A314 | 0.03 | 0.04 | 0.04 | 0.04
C316 | 0.05 | 0.14 | 0.05 | 0.11
A319 | 0.90 | 0.82 | 0.93 | 0.95
C322 | 0.03 | 0.03 | 0.03 | 0.03
A324 | 0.08 | 0.13 | 0.07 | 0.11
A326 | 0.90 | 0.81 | 0.92 | 0.91
A327 | 1.03 | 0.93 | 1.07 | 1.02
A330 | 0.82 | 0.94 | 0.77 | 0.90
A332 | 0.49 | 0.60 | 0.46 | 0.62
A334 | 0.39 | 0.48 | 0.41 | 0.53
A336 | 0.75 | 0.74 | 0.81 | 0.87
C343 | 0.32 | 0.49 | 0.33 | 0.44
A345 | 1.24 | 1.14 | 1.29 | 1.30
A347 | 0.27 | 0.22 | 0.31 | 0.34
C349 | 0.33 | 0.33 | 0.34 | 0.37
C352 | 0.41 | 0.38 | 0.37 | 0.36
A356 | 0.95 | 0.96 | 0.90 | 0.95
A359 | 0.57 | 0.46 | 0.64 | 0.56
A360 | 0.60 | 0.46 | 0.65 | 0.53
C362 | 0.39 | 0.41 | 0.37 | 0.40
A368 | 0.77 | 0.90 | 0.72 | 0.88
A370 | 0.50 | 0.50 | 0.53 | 0.55
A371 | 0.91 | 0.94 | 0.89 | 0.91
A374 | 0.49 | 0.42 | 0.56 | 0.53
A376 | 0.74 | 0.70 | 0.76 | 0.78
A378 | 0.21 | 0.21 | 0.20 | 0.23
A379 | 0.57 | 0.57 | 0.61 | 0.59
A380 | 0.79 | 0.80 | 0.80 | 0.85
A385 | 0.52 | 0.52 | 0.51 | 0.52
A386 | 1.25 | 1.30 | 1.21 | 1.24
A387 | 0.22 | 0.23 | 0.23 | 0.25
A388 | 0.09 | 0.07 | 0.10 | 0.10
A389 | 0.18 | 0.14 | 0.23 | 0.23
A390 | 0.88 | 0.92 | 0.86 | 0.92
C393 | 0.62 | 0.61 | 0.60 | 0.64
A398 | 0.21 | 0.18 | 0.24 | 0.23
A399 | 0.27 | 0.23 | 0.28 | 0.26
C402 | 0.04 | 0.03 | 0.04 | 0.03
C403 | 0.03 | 0.03 | 0.03 | 0.03
A404 | 0.27 | 0.21 | 0.28 | 0.23
A410 | 0.42 | 0.42 | 0.44 | 0.47
A411 | 0.81 | 0.86 | 0.83 | 0.85
A412 | 0.48 | 0.50 | 0.49 | 0.52
A414 | 0.48 | 0.45 | 0.51 | 0.49
A415 | 0.23 | 0.21 | 0.23 | 0.25
A416 | 0.45 | 0.46 | 0.39 | 0.48
C417 | 0.80 | 0.80 | 0.75 | 0.82
A418 | 0.61 | 0.62 | 0.61 | 0.66
A419 | 0.46 | 0.46 | 0.48 | 0.48
A421 | 0.36 | 0.36 | 0.37 | 0.38
A423 | 0.42 | 0.39 | 0.48 | 0.46
A424 | 0.35 | 0.31 | 0.41 | 0.42
A425 | 0.50 | 0.48 | 0.54 | 0.52
C426 | 0.73 | 0.72 | 0.74 | 0.72
A428 | 0.10 | 0.11 | 0.09 | 0.10
A429 | 0.69 | 0.69 | 0.72 | 0.72
A430 | 0.53 | 0.51 | 0.59 | 0.62
A431 | 0.59 | 0.56 | 0.64 | 0.65
C432 | 0.87 | 0.85 | 0.89 | 0.91
A433 | 0.71 | 0.72 | 0.71 | 0.73
A435 | 0.48 | 0.50 | 0.48 | 0.52
A437 | 0.03 | 0.03 | 0.03 | 0.03

Extract of 5 entries:

position	2G capped low-salt dimer	2G capped low-salt monomer	2G uncapped high-salt dimer	2G uncapped high-salt monomer
A435	0.48	0.50	0.48	0.52
A370	0.50	0.50	0.53	0.55
A390	0.88	0.92	0.86	0.92
A428	0.10	0.11	0.09	0.10
A431	0.59	0.56	0.64	0.65

Values reported by Ye et al. 2022 (doi:10.1038/s41594-022-00746-2).